## Library screen at single concentrations

Data taken from ChEMBL document CHEMBL3988442, “University of Dundee, Small-Polar-MMV Screening Library” (2021).

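Phenotypic screen: M. tuberculosis growth, cholesterol and DPPC medium, 4 days; the read-out is not stated. Concentration: 500 µM. Higher reads as more growth inhibition (inferred: compounds with an IC50 in retests scored well above the rest). Size under these conditions: about 18,000 compounds, about 900 of them at 50% or above in at least one test.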

Each number is a percent effect as filed.
How 0% and 100% were set is not recorded. Most values in the screen are low, and negative values occur.
The entries come from a sample that favours strong results.

O=C(CN1CCC(O)CC1)Nc1ccc(Br)cn1 read -10.89%. Result for CN(CC(=O)N1CCNC1=O)Cc1ccc(Cl)s1 was 1.008%. NC(=O)CN(Cc1ccc(Br)cc1)C(=O)c1ccco1 gave 17.7%. COc1cccc(C2=NN=C(NC3CC3)SC2)c1 read 84.07%. With CCCNC(=O)c1cc(C(C)C)on1 the screen gave 66.2%. With CN(CCO)CCNc1cc([C@H]2C[C@H](N)C2)ncn1 the screen gave -23.59%. COc1cccc(S(=O)(=O)NCCc2noc(C)n2)c1 read 11.73%. For CCNc1ncc(C(=O)N2CCCc3sccc3C2)s1 the result was -6.316%.

For COc1cc(C(=O)NC(C)CC#N)ccc1C (centres undefined) the result was 60.42%. Result for Cc1nc(CN)ccc1C(C)O (centres undefined) was -26.34%. For COCCn1cnnc1CN(C)Cc1nc(C)no1 the result was -1.733%. CC1(C)CS(=O)(=O)CCN1Cc1ccc(Cl)cc1F gave -2.13%. COCCN(C)C(=O)Nc1cccc(C)n1 gave 4.71%. CCN(CC(=O)NCc1ccc(Cl)s1)S(C)(=O)=O gave 21.91%. CCN(CCS(C)(=O)=O)CC(O)c1ccc(C)cc1 (centres undefined) gave 23.74%. With CCOc1ccc(C(=O)N2CCN(C)CC2)cc1C the screen gave 24.72%.

Result for CCCN1CCN(C(=O)Nc2ccc(OC)cc2)CC1 was 24.99%. For COCCCNCc1cccc(OC)c1OC the result was 10.76%. With FC(F)Oc1ccc(NCCn2ccnc2)nc1 the screen gave 34.71%. With Cn1cc(Br)c(=O)c(NC(=O)c2ccc(O)cc2F)c1 the screen gave 3.635%. For COC(=O)N1CCCC(NC(=O)N2CCC2)C1 (centres undefined) the result was 1.131%. Cc1noc(CCCC(=O)Nc2cccnc2)n1 read 9.848%. For CCC[C@H]1CN(C(=O)c2cccc(OC)c2C)C[C@@H]1N the result was 13.61%. With CCN1C[C@@H](CO)[C@H](c2nc(C3CC3)no2)C1 the screen gave 2.358%.

Result for CC(C)CCC(C)NC(=O)c1ccc(=O)n(C)c1 (centres undefined) was 23.97%. Result for NCC(=O)Nc1cccc(F)c1 was -18.94%. Nc1nnc(SCc2cn3ccccc3n2)s1 gave -2.688%. CNC(=O)CSCc1ccc2ccccc2n1 read -35.51%. Result for COc1ccc2[nH]c(C(=O)NCC3CCCO3)cc2c1 (centres undefined) was 67.83%. Result for COCCNc1nnc(SCc2ccc(Br)cn2)s1 was 57.75%. COc1cc(OC)cc(N2CCC(N)CC2)c1 gave -3.646%. CC[C@@]1(O)CCN(C(=O)CCc2cc(Cl)no2)C[C@H]1O gave 35.85%.

CN(C)c1ccc(CN2CCS(=O)(=O)CC2)cn1 read 3.19%. O=C(Cn1ccc(=O)[nH]c1=O)Nc1ccc(Br)cc1 read -5.199%. CCC(C)(C)NC(=O)c1nn(-c2ccccc2)nc1C read 56.09%. For CC(=O)c1cccc(OCC(=O)Nc2cc(C)on2)c1 the result was 4.973%. With CNC(=O)c1sc(NC2CC2)nc1C the screen gave 83.15%. O=C(Nc1ccccc1)C1CCCN1 (centres undefined) read -8.606%. For NCCc1ccnc2ccccc12 the result was -8.211%. For Cc1c[nH]c(CN(C)CC2(CO)CCOCC2)n1 the result was -8.166%.

CC(C)(CNC(=O)CC1=CCCCC1)S(C)(=O)=O read -0.25%. Cc1csc(NC(=O)CSCc2nnc(C)o2)n1 read -28.74%. Result for Nc1cnccc1N1CCOCC1 was -13.06%. For CCCn1ncnc1-c1ccc(C(N)=O)c(Cl)c1 the result was -8.419%. For CC(C)N1CCC(CN)C1 (centres undefined) the result was -20.07%. CN(CCCOc1ccccc1)CC(=O)NCCC#N read 3.186%. CCc1cc(C(=O)NC(CC)[C@H]2C[C@@H](O)C2)[nH]n1 (some centres undefined) gave 3.295%. For N#Cc1cccc(-c2csc(N)n2)c1 the result was 19.23%.

The first 6 entries again:

* O=C(CN1CCC(O)CC1)Nc1ccc(Br)cn1 | -10.89%
* CN(CC(=O)N1CCNC1=O)Cc1ccc(Cl)s1 | 1.008%
* NC(=O)CN(Cc1ccc(Br)cc1)C(=O)c1ccco1 | 17.7%
* COc1cccc(C2=NN=C(NC3CC3)SC2)c1 | 84.07%
* CCCNC(=O)c1cc(C(C)C)on1 | 66.2%
* CN(CCO)CCNc1cc([C@H]2C[C@H](N)C2)ncn1 | -23.59%